Key:
β-lactamase = conditions: Cartwright et al., Nature 278, 1979, page 360; cited from earlier work
E. coli J T 39 = assay: MIC of ampicillin in the presence of the inhibitor
Klebsiella aerogenes E70 = assay: MIC of ampicillin in the presence of the inhibitor; conditions: inhibitor conc. 5 μg/ml
Proteus sp. C889 = assay: MIC of ampicillin in the presence of the inhibitor; conditions: inhibitor conc. 5 μg/ml
Staph. aureus Russell = assay: MIC of ampicillin in the presence of the inhibitor; conditions: inhibitor conc. 20 μg/ml
[1] = target: Enterobacter P 99 β-lactamase (Enterobacter cloacae, UniProt P05364); assay: β-lactamase inhibition, chromogenic cephalosporin as substrate, cell-free enzyme preparation; conditions: 50 μg/ml of inhibitor, pre-incubation
[2] = target: Escherichia coli JT 4 β-lactamase (Escherichia coli, UniProt P62593); assay: as above; conditions: 50 μg/ml of inhibitor, pre-incubation
[3] = tested on: Klebsiella aerogenes E 70 β-lactamase; assay: as above; conditions: pre-incubation of enzyme with inhibitor
[4] = target: Staphylococcus Russell β-lactamase (Staphylococcus aureus, UniProt P00807); assay: as above; conditions: read-out: concentration of inhibitor required to produce 50% inhibition of hydrolysis, pre-incubation of enzyme with inhibitor

Amino acid sequences for entries named in this document (tags omitted). Residues count along the entry.
UniProt P05364, 21-381 limits assumed: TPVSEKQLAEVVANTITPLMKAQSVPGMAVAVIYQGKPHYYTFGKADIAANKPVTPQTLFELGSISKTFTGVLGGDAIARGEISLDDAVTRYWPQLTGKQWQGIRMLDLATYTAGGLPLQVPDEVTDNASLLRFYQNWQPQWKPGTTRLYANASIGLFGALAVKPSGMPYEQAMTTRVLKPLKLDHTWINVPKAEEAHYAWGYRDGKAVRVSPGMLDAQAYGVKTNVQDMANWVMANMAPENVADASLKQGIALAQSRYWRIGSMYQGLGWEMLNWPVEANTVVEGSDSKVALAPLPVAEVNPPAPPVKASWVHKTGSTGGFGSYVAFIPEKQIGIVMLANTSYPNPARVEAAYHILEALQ
UniProt P62593, 24-286 limits assumed: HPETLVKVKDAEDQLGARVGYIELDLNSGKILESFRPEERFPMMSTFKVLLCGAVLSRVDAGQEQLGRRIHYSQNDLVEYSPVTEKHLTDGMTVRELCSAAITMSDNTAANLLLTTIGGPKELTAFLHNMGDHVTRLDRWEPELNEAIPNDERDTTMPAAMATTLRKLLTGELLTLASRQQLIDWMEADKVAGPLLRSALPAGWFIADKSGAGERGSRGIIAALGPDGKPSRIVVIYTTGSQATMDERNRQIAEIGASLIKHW
UniProt P00807, 25-281 limits assumed: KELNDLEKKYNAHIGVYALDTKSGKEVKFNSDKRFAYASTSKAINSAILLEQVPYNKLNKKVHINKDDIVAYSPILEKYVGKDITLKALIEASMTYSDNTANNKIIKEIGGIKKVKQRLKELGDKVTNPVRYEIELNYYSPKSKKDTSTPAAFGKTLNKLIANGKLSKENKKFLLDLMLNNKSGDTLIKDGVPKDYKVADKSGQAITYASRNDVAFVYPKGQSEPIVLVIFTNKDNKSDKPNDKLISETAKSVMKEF

CC1(C)S[C@@H]2[C@@H](Cl)C(=O)N2[C@H]1C(=O)O
inhibitor of β-lactamase (β-lactamase): not an inhibitor of β-lactamase

CC1(C)S[C@@H]2[C@H](Cl)C(=O)N2[C@H]1C(=O)O
MIC of Ampicillin (E. coli J T 39; inhibitor conc. 5 μg/ml): 500 µg/mL | MIC of Ampicillin (E. coli J T 39; inhibitor conc. 20 μg/ml): 500 µg/mL | MIC of Ampicillin (Klebsiella aerogenes E70): 25 µg/mL | MIC of Ampicillin (Proteus sp. C889): 500 µg/mL | MIC of Ampicillin (Staph. aureus Russell): 0.1 µg/mL | inhibition of hydrolysis [1]: 31% | inhibition of hydrolysis [2]: approximately 42% | concentration of inhibitor required to produce 50% inhibition of hydrolysis [3]: 6.5 µg/mL | IC50 [4]: 1270 nM

From US4347182A, “Preparation of penicillanic acid derivatives” (dated 1982)
